Patent publication US10414808B2 (priority 2012, dated 2019)

Chains of the proteins cited; added tags and fusions are not shown.
UniProt Q15858, whole entry W1161R, looked up: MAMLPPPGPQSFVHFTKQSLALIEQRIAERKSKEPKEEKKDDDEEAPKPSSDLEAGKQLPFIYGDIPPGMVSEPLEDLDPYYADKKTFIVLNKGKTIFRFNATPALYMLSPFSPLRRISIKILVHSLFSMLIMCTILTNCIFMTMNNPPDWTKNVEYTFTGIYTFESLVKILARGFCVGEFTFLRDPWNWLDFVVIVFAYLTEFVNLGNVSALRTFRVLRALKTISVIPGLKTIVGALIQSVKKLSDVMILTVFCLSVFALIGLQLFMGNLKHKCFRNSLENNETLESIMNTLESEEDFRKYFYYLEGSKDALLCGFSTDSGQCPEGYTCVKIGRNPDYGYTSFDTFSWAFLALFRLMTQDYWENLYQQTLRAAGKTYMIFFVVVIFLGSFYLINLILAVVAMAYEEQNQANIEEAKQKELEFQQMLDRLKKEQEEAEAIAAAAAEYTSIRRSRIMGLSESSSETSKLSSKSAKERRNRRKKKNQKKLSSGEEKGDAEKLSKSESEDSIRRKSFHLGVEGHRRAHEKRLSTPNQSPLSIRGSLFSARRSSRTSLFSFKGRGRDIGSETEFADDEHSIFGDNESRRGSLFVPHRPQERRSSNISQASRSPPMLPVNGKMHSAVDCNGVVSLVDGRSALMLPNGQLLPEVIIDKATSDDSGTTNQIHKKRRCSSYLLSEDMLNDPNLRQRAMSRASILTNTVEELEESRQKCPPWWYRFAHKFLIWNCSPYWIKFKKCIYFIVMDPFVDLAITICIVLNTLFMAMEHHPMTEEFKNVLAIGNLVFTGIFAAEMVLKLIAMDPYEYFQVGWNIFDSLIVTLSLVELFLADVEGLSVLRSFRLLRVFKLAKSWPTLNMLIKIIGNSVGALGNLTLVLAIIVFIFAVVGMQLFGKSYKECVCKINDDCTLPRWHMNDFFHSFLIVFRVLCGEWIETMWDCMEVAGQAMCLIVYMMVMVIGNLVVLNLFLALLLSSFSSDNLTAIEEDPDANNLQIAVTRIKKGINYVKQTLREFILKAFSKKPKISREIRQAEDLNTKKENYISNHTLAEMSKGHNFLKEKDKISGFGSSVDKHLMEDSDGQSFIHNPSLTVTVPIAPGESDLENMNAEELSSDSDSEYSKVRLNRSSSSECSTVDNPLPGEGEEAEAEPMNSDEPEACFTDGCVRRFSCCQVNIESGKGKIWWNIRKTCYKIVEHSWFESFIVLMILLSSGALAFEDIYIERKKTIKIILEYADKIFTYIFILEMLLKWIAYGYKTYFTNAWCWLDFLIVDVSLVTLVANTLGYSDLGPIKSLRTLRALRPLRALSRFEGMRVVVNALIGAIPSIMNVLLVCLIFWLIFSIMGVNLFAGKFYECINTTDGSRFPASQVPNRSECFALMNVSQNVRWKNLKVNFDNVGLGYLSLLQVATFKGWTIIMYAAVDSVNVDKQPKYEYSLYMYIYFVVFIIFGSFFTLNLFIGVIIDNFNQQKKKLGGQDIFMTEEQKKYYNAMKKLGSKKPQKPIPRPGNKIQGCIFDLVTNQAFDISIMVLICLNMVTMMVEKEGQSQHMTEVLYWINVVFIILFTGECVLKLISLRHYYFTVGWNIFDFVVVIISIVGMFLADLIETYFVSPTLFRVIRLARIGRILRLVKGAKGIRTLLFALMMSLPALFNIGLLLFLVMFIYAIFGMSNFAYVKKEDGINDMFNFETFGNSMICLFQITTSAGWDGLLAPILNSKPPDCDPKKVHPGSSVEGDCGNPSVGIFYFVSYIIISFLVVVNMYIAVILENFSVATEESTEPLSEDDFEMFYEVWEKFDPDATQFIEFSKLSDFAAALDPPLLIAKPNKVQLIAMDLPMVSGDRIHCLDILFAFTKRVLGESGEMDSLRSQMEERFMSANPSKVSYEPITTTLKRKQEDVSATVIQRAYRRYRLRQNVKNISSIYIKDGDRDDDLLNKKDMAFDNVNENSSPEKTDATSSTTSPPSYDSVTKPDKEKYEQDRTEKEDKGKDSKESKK
UniProt Q99250, whole entry, looked up: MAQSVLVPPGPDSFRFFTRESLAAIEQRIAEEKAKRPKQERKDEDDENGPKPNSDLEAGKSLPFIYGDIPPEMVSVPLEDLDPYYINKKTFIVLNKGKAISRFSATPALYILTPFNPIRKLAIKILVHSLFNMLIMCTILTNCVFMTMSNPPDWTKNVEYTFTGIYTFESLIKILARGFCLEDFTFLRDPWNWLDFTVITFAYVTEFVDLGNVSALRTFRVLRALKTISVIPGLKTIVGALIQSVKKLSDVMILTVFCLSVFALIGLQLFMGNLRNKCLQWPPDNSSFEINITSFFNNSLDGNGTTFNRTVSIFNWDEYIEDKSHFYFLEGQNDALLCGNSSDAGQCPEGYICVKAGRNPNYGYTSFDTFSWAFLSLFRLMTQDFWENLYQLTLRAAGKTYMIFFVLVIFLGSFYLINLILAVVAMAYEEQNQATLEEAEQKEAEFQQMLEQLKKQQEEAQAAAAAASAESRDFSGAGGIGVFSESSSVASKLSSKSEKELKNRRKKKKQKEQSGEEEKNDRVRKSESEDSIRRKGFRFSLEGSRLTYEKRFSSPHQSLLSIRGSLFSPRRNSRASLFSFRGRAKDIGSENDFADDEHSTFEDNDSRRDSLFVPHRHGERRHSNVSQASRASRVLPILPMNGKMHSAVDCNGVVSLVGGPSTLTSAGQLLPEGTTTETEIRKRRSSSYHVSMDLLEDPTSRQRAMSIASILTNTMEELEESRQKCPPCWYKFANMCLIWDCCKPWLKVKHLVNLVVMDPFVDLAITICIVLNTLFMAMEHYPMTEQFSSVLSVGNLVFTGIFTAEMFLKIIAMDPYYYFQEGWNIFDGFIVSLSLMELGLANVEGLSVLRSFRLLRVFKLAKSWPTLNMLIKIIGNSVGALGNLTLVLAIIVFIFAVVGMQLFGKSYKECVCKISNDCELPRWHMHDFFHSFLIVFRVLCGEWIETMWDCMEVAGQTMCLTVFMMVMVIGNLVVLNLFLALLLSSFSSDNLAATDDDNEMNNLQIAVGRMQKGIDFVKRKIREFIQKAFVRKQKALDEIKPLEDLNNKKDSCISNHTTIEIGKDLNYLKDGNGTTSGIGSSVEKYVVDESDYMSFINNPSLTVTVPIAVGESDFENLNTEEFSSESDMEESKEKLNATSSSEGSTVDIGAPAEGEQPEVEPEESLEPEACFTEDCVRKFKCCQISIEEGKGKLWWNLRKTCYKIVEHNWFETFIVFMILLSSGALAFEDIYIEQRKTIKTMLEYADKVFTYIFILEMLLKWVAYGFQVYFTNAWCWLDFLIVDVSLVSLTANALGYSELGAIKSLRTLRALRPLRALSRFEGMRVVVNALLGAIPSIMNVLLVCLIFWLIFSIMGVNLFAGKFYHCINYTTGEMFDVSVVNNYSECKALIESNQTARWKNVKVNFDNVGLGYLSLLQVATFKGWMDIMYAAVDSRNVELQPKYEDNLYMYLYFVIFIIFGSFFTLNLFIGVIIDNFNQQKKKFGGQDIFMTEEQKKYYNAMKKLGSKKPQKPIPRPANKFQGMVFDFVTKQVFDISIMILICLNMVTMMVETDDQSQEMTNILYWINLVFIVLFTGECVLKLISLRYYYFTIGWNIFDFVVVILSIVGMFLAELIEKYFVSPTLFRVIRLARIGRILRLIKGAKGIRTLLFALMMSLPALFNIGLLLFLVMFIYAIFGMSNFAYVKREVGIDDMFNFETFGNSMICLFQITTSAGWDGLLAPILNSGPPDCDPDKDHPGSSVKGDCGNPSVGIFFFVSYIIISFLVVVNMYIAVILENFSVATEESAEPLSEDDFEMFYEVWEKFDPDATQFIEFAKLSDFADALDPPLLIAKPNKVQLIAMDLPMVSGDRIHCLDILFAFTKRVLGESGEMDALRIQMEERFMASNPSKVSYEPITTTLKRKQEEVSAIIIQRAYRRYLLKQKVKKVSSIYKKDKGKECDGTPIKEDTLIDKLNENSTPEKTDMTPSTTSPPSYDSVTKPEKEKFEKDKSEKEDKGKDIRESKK

Assays:
Nav1.7 = Nav1.7 (Homo sapiens, UniProt Q15858, W1161R); assay: IC50 (Nav1.7) µM; conditions: read-out: IC50 (Nav1.7) µM
Nav1.2 = Nav1.2 (Homo sapiens, UniProt Q99250); assay: IC50 (Nav1.2) µM; conditions: read-out: IC50 (Nav1.2) µM

| SMILES | IC50 (Nav1.7) | IC50 (Nav1.2) |
| --- | --- | --- |
| CC[C@H](C)[C@H](NC(=O)[C@H](CCC(N)=O)NC(=O)[C@H](Cc1ccc(O)cc1)NC(=O)[C@H](CCCCN)NC(=O)[C@@H]1CSSC[C@@H]2NC(=O)[C@H](CCC(N)=O)NC(=O)[C@H](CC(=O)O)NC(=O)[C@H](CC(N)=O)NC(=O)[C@H](CO)NC(=O)[C@@H]3CCCN3C(=O)[C@H](CC(N)=O)NC(=O)[C@@H]3CSSC[C@H](NC(=O)[C@H](C(C)C)NC(=O)[C@H](CC(C)C)NC(=O)[C@H](CCCNC(=N)N)NC(=O)[C@H](CO)NC(=O)[C@H](CO)NC(=O)[C@H](CCCCN)NC(=O)[C@H](CSSC[C@H](NC(=O)[C@H](CCC(=O)O)NC(=O)[C@@H]4CCCN4C(=O)CN)C(=O)N[C@@H](CC(C)C)C(=O)N[C@@H](CCC(=O)O)C(=O)N[C@@H]([C@@H](C)CC)C(=O)N[C@@H](Cc4ccccc4)C(=O)N[C@@H](CCCCN)C(=O)N[C@@H](C)C(=O)N3)NC2=O)C(=O)N[C@@H](CO)C(=O)N[C@@H](CCCNC(=N)N)C(=O)N[C@@H](CCCCN)C(=O)N[C@@H]([C@@H](C)O)C(=O)N[C@@H](CCCNC(=N)N)C(=O)N[C@@H](Cc2c[nH]c3ccccc23)C(=O)N1)C(=O)NCC(=O)N[C@@H](CCCCN)C(=O)O | 0.02 µM | 0.04 µM |
| CC[C@H](C)[C@@H]1NC(=O)[C@H](CCC(=O)O)NC(=O)[C@H](CC(C)C)NC(=O)[C@@H](NC(=O)[C@H](CC(N)=O)NC(=O)[C@@H]2CCCN2C(=O)CN)CSSC[C@@H]2NC(=O)[C@@H]3CSSC[C@@H](C(=O)N[C@@H](CCCCN)C(=O)N[C@@H](Cc4c[nH]c5ccccc45)C(=O)N[C@@H](CCC(N)=O)C(=O)N[C@H](C(=O)N[C@H](C(=O)N[C@@H](CCCCN)C(=O)O)[C@@H](C)CC)[C@@H](C)CC)NC(=O)[C@H](Cc4c[nH]c5ccccc45)NC(=O)[C@H](CCCNC(=N)N)NC(=O)[C@H]([C@@H](C)O)NC(=O)[C@H](CCCCN)NC(=O)[C@H](CCCNC(=N)N)NC(=O)[C@H](CO)NC(=O)[C@H](CSSC[C@H](NC(=O)[C@H](C)NC(=O)[C@H](CCCCN)NC(=O)[C@H](Cc4ccccc4)NC1=O)C(=O)N[C@@H](CC(N)=O)C(=O)N1CCC[C@H]1C(=O)N[C@@H](CO)C(=O)N[C@@H](CC(N)=O)C(=O)N[C@@H](CC(=O)O)C(=O)N[C@@H](CCC(N)=O)C(=O)N3)NC(=O)[C@H](C(C)C)NC(=O)[C@H](CC(C)C)NC(=O)[C@H](CCCCN)NC(=O)[C@H](CO)NC(=O)[C@H](CO)NC(=O)[C@H](CCCCN)NC2=O | 0.02 µM | 0.25 µM |
| CC[C@H](C)[C@H](NC(=O)[C@H](CCC(N)=O)NC(=O)[C@H](Cc1ccc(O)cc1)NC(=O)[C@H](CCCCN)NC(=O)[C@@H]1CSSC[C@@H]2NC(=O)[C@H](CCC(N)=O)NC(=O)[C@H](CC(=O)O)NC(=O)[C@H](CC(N)=O)NC(=O)[C@H](CO)NC(=O)[C@@H]3CCCN3C(=O)[C@H](CC(N)=O)NC(=O)[C@@H]3CSSC[C@H](NC(=O)[C@H](C(C)C)NC(=O)[C@H](CC(C)C)NC(=O)[C@H](CCCCN)NC(=O)[C@H](CO)NC(=O)[C@H](CO)NC(=O)[C@H](CCCCN)NC(=O)[C@H](CSSC[C@H](NC(=O)[C@H](CC(N)=O)NC(=O)[C@@H]4CCCN4C(=O)CN)C(=O)N[C@@H](CC(C)C)C(=O)N[C@@H](CCCNC(=N)N)C(=O)N[C@@H]([C@@H](C)CC)C(=O)N[C@@H](Cc4ccccc4)C(=O)N[C@@H](CCCCN)C(=O)N[C@@H](C)C(=O)N3)NC2=O)C(=O)N[C@@H](CO)C(=O)N[C@@H](CCCNC(=N)N)C(=O)N[C@@H](CCCCN)C(=O)N[C@@H]([C@@H](C)O)C(=O)N[C@@H](CCCNC(=N)N)C(=O)N[C@@H](Cc2c[nH]c3ccccc23)C(=O)N1)C(=O)NCC(=O)N[C@@H](CCCCN)C(=O)O | 0.03 µM | 0.03 µM |
